According to patent US9963660B2, “Method of cleaning with enhanced bacteriostatic action using a composition of alcohol and lactate esters” (Vertec Biosolvent, Inc., priority 2015, dated 2018):

Test: Peanut butter removal from coated metal mesh strips (cleaning/solvating action)
Settings: neat solvents, 40° C., 20 minutes dip, 90 minutes drying
Source text: Peanut butter is a complex mixture of fats, carbohydrates and proteins that are emulsified in processing equipment under controlled conditions. Because of its composition that contains all the major food groups and because the product is made by controlled food processing methods, peanut butter was chosen for an initial cleaning examination. Commercially available […]® peanut butter made by Best Foods Company was used. Commercially available metal screen mesh (size 20 mesh) was cut into small (25 mm×75 mm), equal sized strips that were dipped into heated (about 50° C.) peanut butter and then drip dried in air. […] The strips were then dried under forced air at room temperature and their weights were measured periodically. After 90 minutes of drying the test results were evaluated to determine the comparative differences between the effects of the solvent compositions. Commercial grade of ethanol is typically denatured by small quantities of additives. Ethyl acetate is an approved denaturant for ethanol and it is non-toxic for food and biological related applications. In all of the examples for this invention the ethanol used was denatured by about 5% (w/w) ethyl acetate.

| SMILES | Weight loss [g] |
| --- | --- |
| CCO [Ethanol] | 0.41 |
| CCOC(=O)C(C)O (centres unmarked) [Ethyl lactate] | 0.131 |
